Anti-infective test results gathered from many reports (values: NIAID ChemDB through PubChem).

All rows: cytotoxicity tests; cells: MT-4; measure: CC50

CCn is the concentration with n% toxicity to the cells.

{"compound": "[N-]=[N+]=N[C@H]1C[C@H](n2cnc3c(NCCc4ccccc4)nc(N)nc32)O[C@@H]1CO", "result": "<200 µM"}
{"compound": "CC(C)c1c(C(=O)c2cccc3ccccc23)n(C/C=C/c2ccccc2)c(=O)n(C/C=C/c2ccccc2)c1=O", "read by": "MTT", "result": "≥129 µM"}
{"compound": "CN(c1nc(N)nc2c1ncn2[C@H]1C[C@H](N=[N+]=[N-])[C@@H](CO)O1)C1CC1", "result": "<200 µM"}
{"compound": "COC(=O)c1nn([C@H]2C[C@H](O)[C@@H](CO)O2)cc1I", "result": ">300 µM"}
{"compound": "CCN1C(=O)N(c2cccc(Cl)c2)S(=O)(=O)c2cscc21", "result": "62.4 µM"}
{"compound": "CCCCCCCCCCCCCCCCCC(=O)O[C@H]1C(C)=C[C@]23C(=O)[C@@H](C=C(CO)[C@@H](O)[C@]12O)[C@@H]1C(C)(C)[C@]1(OC(=O)CCCCCCCCCCC)C[C@H]3C", "read by": "MTT", "result": "93.5 µg/mL"}
{"compound": "O=C1Nc2cscc2S(=O)(=O)N1c1ccccc1Br", "result": ">695 µM"}
{"compound": "CCCOc1nc(N)nc2c1ncn2[C@H]1C[C@H](N=[N+]=[N-])[C@@H](CO)O1", "result": ">200 µM"}
{"compound": "Cc1cc(C)c(Oc2cc(Nc3ccc(C#N)cc3)ncc2C(=O)NCc2cn(CC(=O)N3CCCC3)nn2)c(C)c1", "read by": "MTT", "result": "58.09 µM"}
{"compound": "c1ccc2c(c1)ncc1cc3c(cc12)OCO3", "read by": "MTT", "result": "7.5 µg/mL"}
{"compound": "O=C(N/N=C/c1cccc(Cl)c1)c1csc(N2N=C(c3ccccc3)CC2c2ccc(Cl)cc2)n1", "read by": "MTT / absorbance", "result": "64.5 µM"}
{"compound": "COC(=O)c1nn([C@@H]2CC[C@@H](CO)O2)cc1I", "result": ">300 µM"}
{"compound": "O=C1NC(=O)C(=Cc2cc(O)c(O)c(O)c2)C(=O)N1", "read by": "MTT", "result": "50 µM"}
{"compound": "CCOC(=O)Cn1c(C(=O)c2cccc3ccccc23)c(C(C)C)c(=O)[nH]c1=O", "read by": "MTT", "result": "37.01 µM"}
{"compound": "CSc1nc(N)nc2c1ncn2[C@H]1C[C@H](N=[N+]=[N-])[C@@H](CO)O1", "result": ">200 µM"}
{"compound": "CCN1C(=O)N(Cc2ccc(OC)cc2OC)S(=O)(=O)c2cscc21", "result": "255.2 µM"}
{"compound": "O=C(N/N=C/c1c(Cl)cccc1Cl)c1csc(N2N=C(c3ccccc3)CC2c2ccc(Cl)cc2)n1", "read by": "MTT / absorbance", "result": "6.26 µM"}
{"compound": "Cc1cc(=O)c(O)c(C(=O)NCc2ccc(Cl)cc2)o1", "read by": "MTT", "result": ">195.5 µM"}
{"compound": "Cc1ccccc1Cn1cc2c(c1)S(=O)(=O)c1cc(Cl)ccc1NC2=O", "read by": "MTT", "result": ">200 µM"}
{"compound": "[N-]=[N+]=N[C@H]1C[C@H](n2cnc3c(NC4CCC4)nc(N)nc32)O[C@@H]1CO", "result": ">80 µM"}
{"compound": "CCOC(=O)CNC(=O)n1nnc2c(C)nn(-c3ccccc3)c21", "result": "122 µM"}
{"compound": "C#CCn1c(C(=O)c2cccc3ccccc23)c(C(C)C)c(=O)[nH]c1=O", "read by": "MTT", "result": "4.1 µM"}
{"compound": "CC1=C[C@]23C(=O)[C@@H](C=C(COC(=O)C(C)(C)C)[C@@H](O)[C@]2(O)[C@H]1O)[C@H]1[C@@H](C[C@H]3C)C1(C)C", "read by": "MTT", "result": "8.9 µg/mL"}
{"compound": "O=C1Nc2cscc2S(=O)(=O)N1c1ccc(Cl)cc1", "result": "266.5 µM"}
{"compound": "CO[C@@H]1C=C[C@@]23c4cc5c(cc4CN(C[C@@H]2O)[C@H]3C1)OCO5", "read by": "MTT", "result": "1 µg/mL"}
{"compound": "CCc1c(C(=O)c2cccc3ccccc23)n(COCCOC)c(=O)[nH]c1=O", "read by": "MTT", "result": "164 µM"}
{"compound": "O=C(O)c1ccc2ccc(/C=C/c3cc(O)c(O)c(O)c3)nc2c1O", "read by": "MTT", "result": ">100 µM"}
{"compound": "[N-]=[N+]=N[C@H]1C[C@H](n2cnc3c(Nc4ccccc4)nc(N)nc32)O[C@@H]1CO", "result": ">200 µM"}
{"compound": "O=C(N/N=C/c1ccccc1O)c1csc(N2N=C(c3ccccc3)CC2c2ccc(Cl)cc2)n1", "read by": "MTT / absorbance", "result": "7.33 µM"}
{"compound": "[N-]=[N+]=N[C@H]1C[C@H](n2cnc3c(N4CCC4)nc(N)nc32)O[C@@H]1CO", "result": ">200 µM"}
{"compound": "O=S1(=O)c2cc(Cl)ccc2NC(=S)c2c[nH]cc21", "read by": "MTT", "result": ">200 µM"}
{"compound": "O=C(N/N=C/c1ccc(Cl)cc1O)c1csc(N2N=C(c3ccccc3)CC2c2ccc(Cl)cc2)n1", "read by": "MTT / absorbance", "result": "1.35 µM"}
{"compound": "CCN(C)C(=O)Oc1nsnc1-c1c(Cl)cccc1Cl", "result": "29 µM"}
{"compound": "CO[C@@H]1C=C[C@@]23c4cc5c(cc4[C@H](O)N(C[C@@H]2O)[C@H]3C1)OCO5", "read by": "MTT", "result": "1 µg/mL"}
{"compound": "COc1ccc(/C=N/NC(=O)c2csc(N3N=C(c4ccccc4)CC3c3ccc(Cl)cc3)n2)cc1", "read by": "MTT / absorbance", "result": ">125 µM"}
{"compound": "CCCCCCCCCCCC(=O)O[C@@]12C[C@@H](C)[C@]34C=C(C)[C@H](O)[C@@]3(O)[C@H](O)C(COC(=O)OC)=C[C@H](C4=O)[C@@H]1C2(C)C", "read by": "MTT", "result": "3.2 µg/mL"}
{"compound": "Cc1c(Sc2ccccc2)n(COCCO)c(=O)[nH]c1=O", "read by": "MTT", "result": "405 µM"}
{"compound": "COc1ccccc1/C=N/NC(=O)c1csc(N2N=C(c3ccccc3)CC2c2ccc(Cl)cc2)n1", "read by": "MTT / absorbance", "result": "10.32 µM"}
{"compound": "CCOC(=O)CNc1nc2c(o1)c(C)nn2-c1ccccc1", "result": "20 µM"}
{"compound": "Cc1cn([C@H]2C[C@H](N=[N+]=[N-])[C@@H](CO)O2)c(=O)[nH]c1=O", "result": "84 µM"}
{"compound": "CC1=C[C@]23C(=O)[C@@H](C=C(COC(=O)C(C)(C)C)[C@@H](O)[C@]2(O)[C@H]1OC(=O)C(C)(C)C)[C@H]1[C@@H](C[C@H]3C)C1(C)C", "read by": "MTT", "result": "8.9 µg/mL"}
{"compound": "O=C1Nc2cscc2S(=O)(=O)N1c1cccc(Cl)c1", "result": "110.7 µM"}
{"compound": "O=C(N/N=C/c1ccc(Cl)cc1)c1csc(N2N=C(c3ccccc3)CC2c2ccc(Cl)cc2)n1", "read by": "MTT / absorbance", "result": ">125 µM"}
{"compound": "CCc1c(C(=O)c2cccc3ccccc23)n(CC=C(C)C)c(=O)[nH]c1=O", "read by": "MTT", "result": "36.33 µM"}
{"compound": "[N-]=[N+]=N[C@H]1C[C@H](n2cnc3c(=S)nc(N)[nH]c32)O[C@@H]1CO", "result": "~80 µM"}
{"compound": "OC1/C(=C/c2ccc(Cl)c(Cl)c2)COC/C1=C\\c1ccc(Cl)c(Cl)c1", "read by": "MTT", "result": "165 µM"}
{"compound": "NC(=O)c1nn(COC(CO)CO)cc1I", "result": ">300 µM"}
{"compound": "CCNC(=O)n1nnc2c(C)nn(-c3ccccc3)c21", "result": "81 µM"}
{"compound": "COCn1c(C(=O)c2cccc3ccccc23)c(C(C)C)c(=O)[nH]c1=O", "read by": "MTT", "result": "42.98 µM"}
{"compound": "CCOC(=O)c1c[nH]cc1S(=O)(=O)c1ccccc1", "read by": "MTT", "result": ">200 µM"}
{"compound": "O=C1/C(=C\\c2cc(O)c(O)c(O)c2)Cc2ccccc21", "read by": "MTT", "result": "16 µM"}

4 of the rows above, restated:

compound,read by,result
CCNC(=O)n1nnc2c(C)nn(-c3ccccc3)c21,-,81 µM
CCN1C(=O)N(c2cccc(Cl)c2)S(=O)(=O)c2cscc21,-,62.4 µM
CCOC(=O)Cn1c(C(=O)c2cccc3ccccc23)c(C(C)C)c(=O)[nH]c1=O,MTT,37.01 µM
c1ccc2c(c1)ncc1cc3c(cc12)OCO3,MTT,7.5 µg/mL

An empty or dashed field is not shown. Neighbouring rows are from separate reports.